Experimental data reported in patent US4886667A, “External preparation composition” (priority 1985, dated 1989).

Test system: Peptostreptococcus sp. (22 isolated strains)
Assay: MIC against clinically isolated strains (cumulation percent)
Details: 22 isolated strains of Peptostreptococcus sp.

Ratanhiaphenol [F]
range of effective concentration (100% efficiency): 3.13 to 12.5 µg/mL
